Test system: infant intestinal microbiota
Test: quad-SHIME infant intestinal microbiota model (SCFA, glycoprofile)
Type: cell-based, human infant faecal inoculum
Excerpt: A faecal sample from a healthy infant born via C-section, exclusively breastfed with no history of antibiotic usage, was used as inoculum to simulate the infant intestinal microbiota in the colon compartments of a quad-SHIME®—a dynamic model of the human gastrointestinal tract comprises 4 SHIME® units running in parallel and each SHIME® unit is composed of 3 reactors simulating the stomach and small intestine, proximal and distal colons.

C[C@@H]1O[C@@H](O[C@H]2[C@H](O[C@H]3[C@H](O)[C@@H](O)C(O)O[C@@H]3CO)O[C@H](CO)[C@H](O)[C@@H]2O)[C@@H](O)[C@H](O)[C@@H]1O (stereo partly drawn) [2′-FL, α-L-Fuc-(1→2)-β-D-Gal-(1→4)-D-Glc]
metabolisation by the microbiota (glycoprofile) (in the presence of scGOS/lcFOS): slowly metabolised across the proximal and distal colon
metabolisation by the microbiota (glycoprofile) (supplemented alone): not metabolized when supplemented alone
